Compound potency records, mixed from different reports. Data source: NIAID ChemDB in PubChem.

Shared fields: growth or infection tests; species: Staphylococcus aureus

Two numbers with a dash give a range or band. MIC50, MIC90 and the like: level of inhibition, or share of isolates inhibited. Lines come from different laboratories, so protocols vary.

CC[C@H]1OC(=O)[C@H](C)C(=O)[C@H](C)[C@@H](O[C@@H]2O[C@H](C)C[C@H](N(C)C)[C@H]2O)[C@@]2(C)C[C@@H](C)C(=NC(C)=O)[C@H](C)C(OC/C(=C\C#Cc3ccccc3)CO2)[C@]1(C)O ; measure: MIC ; strain or isolate: 33591 (erythromycin methicillin-resistant) ; result: >64 µg/mL
CC(=S)NC[C@H]1CN(c2ccc(-c3nnc(CNC(=O)CO)s3)c(F)c2)C(=O)O1 ; measure: MIC ; strain or isolate: UC9213 (methicillin-susceptible) ; result: 1 µg/mL
CC(=O)NC[C@H]1CN(c2ccc(OC3CCN(C(=O)c4cccs4)CC3)c(F)c2)C(=O)O1 ; measure: MIC ; strain or isolate: OC4172 methicillin-susceptible ; result: 16 µg/mL
CSCC(=O)NC[C@H]1CN(c2ccc(N3CCOCC3)c(F)c2)C(=O)O1 ; measure: MIC ; strain or isolate: ATCC 29213 (linezolid-resistant) ; result: >64 µg/mL
CN(C)[C@@H]1C(=O)C(C(N)=O)=C(O)[C@@]2(O)C(=O)C3=C(O)c4c(O)ccc(-c5ccc(F)cc5)c4C[C@H]3C[C@@H]12 ; measure: MIC ; strain or isolate: MRSA5 (methicillin-resistant) ; result: 0.25 µg/mL
CNC(=O)CC1NC(=O)c2csc(n2)-c2ccc(-c3nc(C(=O)NCCCN4CCOCC4)cs3)nc2-c2csc(n2)-c2csc(n2)C(C(O)c2ccccc2)NC(=O)CNC(=O)c2nc(sc2CN(C)C)C(C(C)C)NC(=O)c2nc1sc2C ; measure: MIC ; strain or isolate: ATCC 33591 (methicillin-resistant) ; result: 8 µg/mL
CC(=O)NC[C@H]1CN(c2ccc(OC3CCN(C(=O)COCc4ccccc4)CC3)nc2)C(=O)O1 ; measure: MIC ; strain or isolate: OC4172 methicillin-susceptible ; result: 128 µg/mL
CC(C)(C)n1cc(C(=O)O)c(=O)c2cc(F)c(N3C[C@H]4C[C@@H]3CN4)nc21 ; measure: MIC50 ; strain or isolate: 44 strains (methicillin-resistant) ; result: 0.25 µg/mL
O=C(/C=C/c1ccc([N+](=O)[O-])cc1)NC[C@H]1CN(c2ccc(N3CCOCC3)c(F)c2)C(=O)O1 ; measure: MIC ; strain or isolate: ATCC 29213 (linezolid-resistant) ; result: >32 µg/mL
CC(=O)NC[C@H]1CN(c2ccc(-n3cnc(C=CC#N)c3)c(F)c2)C(=O)O1 ; measure: MIC ; strain or isolate: Methicillin- and quinolone-resistant ; result: 1 µg/mL
CC(=S)NC[C@H]1CN(c2ccc(-c3nnc(CN(C)C(=O)CO)s3)c(F)c2)C(=O)O1 ; measure: MIC ; strain or isolate: UC9213 (methicillin-susceptible) ; result: 1 µg/mL
C[C@H]1NCc2cc(-c3ccc4c(=O)c(C(=O)O)cn(C5CC5)c4c3OC(F)F)ccc21 ; measure: MBC ; strain or isolate: A29030 (methicillin-resistant) ; result: 0.06 µg/mL
CCCCCCCCCCCC[N+](C)(C)CSCCCCC ; measure: MIC ; strain or isolate: ATCC33592 ; result: 13.7 µM
CC(=S)NC[C@H]1CN(c2ccc(-c3nnc([C@@H](N)C(C)C)s3)c(F)c2)C(=O)O1 ; measure: MIC ; strain or isolate: UC9213 (methicillin-susceptible) ; result: 1 µg/mL
CC(=O)NC[C@H]1CN(c2ccc(OC3CCN(C(=O)COCc4ccccc4)CC3)c(F)c2)C(=O)O1 ; measure: MIC ; strain or isolate: OC4172 methicillin-susceptible ; result: 16 µg/mL
CN(C)[C@@H]1C(=O)C(C(N)=O)=C(O)[C@@]2(O)C(=O)C3=C(O)c4c(O)ccc(-c5ccoc5)c4C[C@H]3C[C@@H]12 ; measure: MIC ; strain or isolate: MRSA5 (methicillin-resistant) ; result: 1 µg/mL
CO/N=C1\CN(c2nc3c(cc2F)c(=O)c(C(=O)O)cn3C2CC2)CC1CN ; measure: MIC50 ; strain or isolate: 9 isolates (methicillin-susceptible) ; result: 0.063 µg/mL
CC(=S)NC[C@H]1CN(c2ccc(-c3nnc([C@@H](N)CO)s3)c(F)c2)C(=O)O1 ; measure: MIC ; strain or isolate: UC9213 (methicillin-susceptible) ; result: 1 µg/mL
CC(C)(C)n1cc(C(=O)O)c(=O)c2cc(F)c(N3C[C@H]4C[C@@H]3CN4)nc21 ; measure: MIC ; strain or isolate: A9537 ; result: 0.03 µg/mL
CN1COc2c(N3CC4C5CCC(N)(CC5)C4C3)c(F)c(N)c3c(=O)c(C(=O)O)cn1c23 ; measure: MIC ; strain or isolate: ICB 25701 ; result: 2 µg/mL
CCCCCCCCCCCC[N+](C)(C)COC(CC)CCCCC ; measure: MBC ; strain or isolate: ATCC33592 ; result: 25.5 µM
C[C@@H]1CN(c2c(F)c(N)c3c(=O)c(C(=O)O)cn(C4CC4)c3c2F)C[C@H](C)N1 ; measure: MIC90 ; strain or isolate: Methicillin-resistant ; result: 0.06–8 µg/mL
CCCCCCCC[N+](C)(C)COC1CCCCCCCCCCC1 ; measure: MBC ; strain or isolate: ATCC 6538 ; result: 12.8 µM
CC[C@H]1OC(=O)[C@H](C)C(=O)[C@H](C)[C@@H](O[C@@H]2O[C@H](C)C[C@H](N(C)C)[C@H]2O)[C@@]2(C)C[C@@H](C)C(=NC(C)=O)[C@H](C)C(OC/C(=C\C#Cc3ccc(N)nc3)CO2)[C@]1(C)O ; measure: MIC ; strain or isolate: 33591 (erythromycin methicillin-resistant) ; result: >64 µg/mL
CC(=S)NC[C@H]1CN(c2ccc(-c3nnc(CN(C)C=O)s3)c(F)c2)C(=O)O1 ; measure: MIC ; strain or isolate: UC9213 (methicillin-susceptible) ; result: <0.5 µg/mL
CC[C@H]1OC(=O)[C@H](C)C(=O)[C@H](C)[C@@H](O[C@@H]2O[C@H](C)C[C@H](N(C)C)[C@H]2O)[C@@]2(C)C[C@@H](C)C(=NC(=O)CO)[C@H](C)C(OC/C(=C\C=C\c3ccccc3)CO2)[C@]1(C)O ; measure: MIC ; strain or isolate: 27660 (erythromycin-resistant) ; result: 0.5 µg/mL
CNC(=O)CC1NC(=O)c2csc(n2)-c2ccc(-c3nc(C(=O)NCCC(=O)OC(C)(C)C)cs3)nc2-c2csc(n2)-c2csc(n2)C(C(O)c2ccccc2)NC(=O)CNC(=O)c2nc(sc2CSSc2ccc(C(=O)O)cn2)C(C(C)C)NC(=O)c2nc1sc2C ; measure: MIC ; strain or isolate: ATCC 33591 (methicillin-resistant) ; result: 16 µg/mL
CC(=S)NC[C@H]1CN(c2ccc(-c3nnc(CN(C)S(C)(=O)=O)s3)c(F)c2)C(=O)O1 ; measure: MIC ; strain or isolate: UC9213 (methicillin-susceptible) ; result: 2 µg/mL
CC[C@H]1OC(=O)[C@H](C)C(=O)[C@H](C)[C@@H](O[C@@H]2O[C@H](C)C[C@H](N(C)C)[C@H]2O)[C@@]2(C)C[C@@H](C)C(=NC(C)=O)[C@H](C)C(OC/C(=C\C=C\c3ccc(OC)cc3)CO2)[C@]1(C)O ; measure: MIC ; strain or isolate: 33591 (erythromycin methicillin-resistant) ; result: 64 µg/mL
O=C(/C=C/c1ccc(F)cc1)NC[C@H]1CN(c2ccc(N3CCOCC3)c(F)c2)C(=O)O1 ; measure: MIC ; strain or isolate: ATCC 29213 (linezolid-resistant) ; result: >64 µg/mL
CC[C@H]1OC(=O)[C@H](C)C(=O)[C@H](C)[C@@H](O[C@@H]2O[C@H](C)C[C@H](N(C)C)[C@H]2O)[C@@]2(C)C[C@@H](C)C(=NC(C)=O)[C@H](C)C(OC/C(=C\C=C\c3cccc([N+](=O)[O-])c3)CO2)[C@]1(C)O ; measure: MIC ; strain or isolate: 27660 (erythromycin-resistant) ; result: 0.25 µg/mL
CNC(=O)CC1NC(=O)c2csc(n2)-c2ccc(-c3nc(C(=O)NCCC(=O)OC(C)(C)C)cs3)nc2-c2csc(n2)-c2csc(n2)C(C(O)c2ccccc2)NC(=O)CNC(=O)c2nc(sc2CSSc2nnnn2CC(=O)O)C(C(C)C)NC(=O)c2nc1sc2C ; measure: MIC ; strain or isolate: ATCC 33591 (methicillin-resistant) ; result: >16 µg/mL
CCCCCCCCCCCC[N+](C)(C)COC1CCCCCC1 ; measure: MIC ; strain or isolate: ATCC33592 ; result: 13.3 µM
CC(C)(C)n1cc(C(=O)O)c(=O)c2cc(F)c(N3C[C@@H]4C[C@H]3CN4)nc21 ; measure: MIC ; strain or isolate: A9537 ; result: 0.06 µg/mL
CN(C)[C@@H]1C(=O)C(C(N)=O)=C(O)[C@@]2(O)C(=O)C3=C(O)c4c(O)ccc(-c5ccc6c(c5)OCO6)c4C[C@H]3C[C@@H]12 ; measure: MIC ; strain or isolate: MRSA5 (methicillin-resistant) ; result: 0.5 µg/mL
COc1c(N2CCNC(C)C2)c(F)cc2c(=O)c(C(=O)O)cn(C3CC3)c12 ; measure: MIC90 ; strain or isolate: 30 strains (methicillin-resistant) ; result: 0.2 µg/mL
CCCCCCCCCCCC[N+](C)(C)COC(C)CCC ; measure: MIC ; strain or isolate: ATCC 6538 ; result: 7.14 µM
CC[C@H]1OC(=O)[C@H](C)C(=O)[C@H](C)[C@@H](O[C@@H]2O[C@H](C)C[C@H](N(C)C)[C@H]2O)[C@@]2(C)C[C@@H](C)C(=NC(C)=O)[C@H](C)C(OC/C(=C\C=C\c3ccccc3)CO2)[C@]1(C)O ; measure: MIC ; strain or isolate: 33591 (erythromycin methicillin-resistant) ; result: >64 µg/mL
CC(=S)NC[C@H]1CN(c2ccc(-c3nnc(CN)s3)c(F)c2)C(=O)O1 ; measure: MIC ; strain or isolate: UC9213 (methicillin-susceptible) ; result: <0.5 µg/mL
CCCC[C@H](CC(=O)NO)C(=O)N1CCC[C@H]1C(=O)NC ; measure: MIC90 ; strain or isolate: 25 strains ; result: 8 µg/mL
CN(C)c1cc(CNCC(C)(C)C)c(O)c2c1C[C@H]1C[C@H]3[C@H](N(C)C)C(=O)C(C(N)=O)=C(O)[C@@]3(O)C(=O)C1=C2O ; measure: MIC ; strain or isolate: MRSA5 (methicillin-resistant) ; result: 0.25 µg/mL
O=C(CCc1ccccc1)NC[C@H]1CN(c2ccc(N3CCOCC3)c(F)c2)C(=O)O1 ; measure: MIC ; strain or isolate: ATCC 29213 (linezolid-resistant) ; result: >64 µg/mL
CC[C@H]1OC(=O)[C@H](C)C(=O)[C@H](C)[C@@H](O[C@@H]2O[C@H](C)C[C@H](N(C)C)[C@H]2O)[C@@]2(C)C[C@@H](C)C(=NC(C)=O)[C@H](C)C(OC/C(=C\C#Cc3ccc(N)cc3)CO2)[C@]1(C)O ; measure: MIC ; strain or isolate: 27660 (erythromycin-resistant) ; result: 0.13 µg/mL
CNC(=O)CC1NC(=O)c2csc(n2)-c2ccc(-c3nc(C(=O)NCCC(=O)OC(C)(C)C)cs3)nc2-c2csc(n2)-c2csc(n2)C(C(O)c2ccccc2)NC(=O)CNC(=O)c2nc(sc2CSSC)C(C(C)C)NC(=O)c2nc1sc2C ; measure: MIC ; strain or isolate: ATCC 33591 (methicillin-resistant) ; result: 0.125 µg/mL
CC(=O)NC[C@H]1CN(c2ccc(OC3CCN(C(=O)c4ccco4)CC3)c(F)c2)C(=O)O1 ; measure: MIC ; strain or isolate: OC4172 methicillin-susceptible ; result: 32 µg/mL
O=C(Cc1cccc(Br)c1)NC[C@H]1CN(c2ccc(N3CCOCC3)c(F)c2)C(=O)O1 ; measure: MIC ; strain or isolate: ATCC 29213 (linezolid-resistant) ; result: >64 µg/mL

Repeating the first 6 entries:

smiles	measure	strain or isolate	result
CC[C@H]1OC(=O)[C@H](C)C(=O)[C@H](C)[C@@H](O[C@@H]2O[C@H](C)C[C@H](N(C)C)[C@H]2O)[C@@]2(C)C[C@@H](C)C(=NC(C)=O)[C@H](C)C(OC/C(=C\C#Cc3ccccc3)CO2)[C@]1(C)O	MIC	33591 (erythromycin methicillin-resistant)	>64 µg/mL
CC(=S)NC[C@H]1CN(c2ccc(-c3nnc(CNC(=O)CO)s3)c(F)c2)C(=O)O1	MIC	UC9213 (methicillin-susceptible)	1 µg/mL
CC(=O)NC[C@H]1CN(c2ccc(OC3CCN(C(=O)c4cccs4)CC3)c(F)c2)C(=O)O1	MIC	OC4172 methicillin-susceptible	16 µg/mL
CSCC(=O)NC[C@H]1CN(c2ccc(N3CCOCC3)c(F)c2)C(=O)O1	MIC	ATCC 29213 (linezolid-resistant)	>64 µg/mL
CN(C)[C@@H]1C(=O)C(C(N)=O)=C(O)[C@@]2(O)C(=O)C3=C(O)c4c(O)ccc(-c5ccc(F)cc5)c4C[C@H]3C[C@@H]12	MIC	MRSA5 (methicillin-resistant)	0.25 µg/mL
CNC(=O)CC1NC(=O)c2csc(n2)-c2ccc(-c3nc(C(=O)NCCCN4CCOCC4)cs3)nc2-c2csc(n2)-c2csc(n2)C(C(O)c2ccccc2)NC(=O)CNC(=O)c2nc(sc2CN(C)C)C(C(C)C)NC(=O)c2nc1sc2C	MIC	ATCC 33591 (methicillin-resistant)	8 µg/mL